Like-named read-outs stand apart in the source and are kept apart here. Marks after values point to notes of the source that are not given here.
Tested on: Punta Toro virus - Adames strain
Assay type: in vivo, Punta Toro virus (host: C57BL/6 mice)
Details: for Hepatic parameters (ALT) ALT ± Standard Deviation / Viral load ± Standard deviation, Liver / Viral load ± Standard deviation, Serum / Percentage of animals with detectable viruses, Liver / Percentage of animals with detectable viruses, Serum: 3rd day of infection; for Percentage of animals with detectable viruses, Liver / Percentage of animals with detectable viruses, Serum: 5 animals; for Parameters of Hepatic Damage (Score) Score ± Standard Deviation: 3rd day; for Number of survivors: 21 days
[1] = Immunomodulator 1 mg/kg single dose i.p. 24 h after infection
[2] = Immunomodulator 10 mg/kg single dose i.p. 24 h after infection
[3] = Immunomodulator 100 mg/kg single dose i.p. 24 h after infection

Substance: proteic aggregate of ammonium and magnesium phospholinoleate-palmitoleate anhydride [Immunomodulator]
- Hepatic parameters (ALT) ALT ± Standard Deviation [1]: 2892 ± 2170 UI/liter
- Viral load ± Standard deviation, Liver [1]: <3.3 ± 1.1 Log10 CCID50/0.1 g of liver
- Viral load ± Standard deviation, Serum [1]: 6.3 ± 0.8 Log10 CCID50/ml of serum
- Percentage of animals with detectable viruses, Liver [1]: (20) %
- Percentage of animals with detectable viruses, Serum [1]: (100) %
- Parameters of Hepatic Damage (Score) Score ± Standard Deviation [1]: 3.3 ± 0.4
- Number of survivors [1]: 5/10
- Hepatic parameters (ALT) ALT ± Standard Deviation [2]: 2069 ± 2024 UI/liter
- Viral load ± Standard deviation, Liver [2]: <3.3 ± 0.8 Log10 CCID50/0.1 g of liver
- Viral load ± Standard deviation, Serum [2]: 5.7 ± 1.0 Log10 CCID50/ml of serum
- Percentage of animals with detectable viruses, Liver [2]: (60) %
- Percentage of animals with detectable viruses, Serum [2]: (100) %
- Parameters of Hepatic Damage (Score) Score ± Standard Deviation [2]: 2.8 ± 0.3
- Number of survivors [2]: 4/10
- Hepatic parameters (ALT) ALT ± Standard Deviation [3]: 2879 ± 1598 UI/liter
- Viral load ± Standard deviation, Liver [3]: < 2.8 Log10 CCID50/0.1 g of liver
- Viral load ± Standard deviation, Serum [3]: <4.9 ± 1.4 Log10 CCID50/ml of serum
- Percentage of animals with detectable viruses, Liver [3]: 0%
- Percentage of animals with detectable viruses, Serum [3]: (80) %
- Parameters of Hepatic Damage (Score) Score ± Standard Deviation [3]: 3.0 ± 0.4
- Number of survivors [3]: 10/10**
